Assay results from US8742158B2, “Protease inhibitors” (TaiMed Biologics, Inc., priority 2006, dated 2014).
Read-outs that look alike come from different tables or passages of the source.

How the values were obtained:
HIV-1 viral strain NL4-3 = assay: Anti-viral assay in vitro (MTT, infected MT-4 cells, six days); type: cell-based; conditions: read-out: ANTI-HIV-EC50 VIRAL STRAIN NL4-3
Method: Anti-Viral and Cytotoxicity Assays In Vitro
• To evaluate the EC50 of our compounds, various drug concentrations are incubated with the infected cell for six days and then the metabolic activity of the cells is monitored by the MTT assay. (See A. J. Japour et al., Antimicrobial Agents and Chemotherapy, 37, 1095-1101, 1993 and R. Pauwels et al. Journal of Virological Methods, 20, 309-321, 1988) • We use the laboratory viral strain NL4.3 as wild type virus and the cell line used is MT-4 which is a T-cell line highly sensitive to HIV-1. We also use some WT clinical strains. To address the resistance issue we assay the inhibitors with NL4.3 mutants which are designed to be resistant to specific commercially available inhibitors. • The same MTT assay is used to evaluate the CCIC50 (cell culture of IC50) of our compounds except that the virus is omitted.

HIV-1 Protease = HIV-1 Protease (Human immunodeficiency virus type 1 group M subtype B (isolate HXB2) (HIV-1), UniProt P04585); assay: Enzymatic (FRET fluorometric) assay for determining the inhibition constant (Ki) of compounds targeting the HIV protease; conditions: for IC50: read-out: IC50 ENZYME HIV-1 Protease
[1] = read-out: KI-CALC ENZYME HIV-1 Protease, calculated Ki
[2] = read-out: KIGRAPHIC ENZYME HIV-1 Protease, Ki determined graphically

Row | SMILES | EC50 (HIV-1 viral strain NL4-3) [nM] | Ki (HIV-1 Protease; [1]) [nM] | IC50 (HIV-1 Protease) [nM] | Ki (HIV-1 Protease; [2]) [nM]
1 | CC(C)CN([C@@H](CCCCNC(=O)[C@H](Cc1cccc2ccccc12)NC(=O)N1CCOCC1)C(N)=O)S(=O)(=O)c1ccc(N)cc1 | 70 | – | – | –
2 | CC(C)CN(C(CO)CCCCNC(=O)C(Cc1ccc2ccccc2c1)NS(=O)(=O)c1cccs1)S(=O)(=O)c1ccc(N)cc1 (stereo not shown) | 3000 | 7.9 | – | –
3 | CC(C)CN(C(CO)CCCCNC(=O)C(Cc1ccc2ccccc2c1)NS(=O)(=O)c1ccc(F)cc1F)S(=O)(=O)c1ccc(N)cc1 (stereo not shown) | – | 54.6 | – | –
4 | COc1ccc(S(=O)(=O)NC(Cc2ccc3ccccc3c2)C(=O)NCCCCC(CO)N(CC(C)C)S(=O)(=O)c2ccc(N)cc2)cc1OC (stereo not shown) | – | 12.5 | – | –
5 | COC(=O)N[C@H](C(=O)NCCCC[C@@H](C(=O)O)N(CC(C)C)S(=O)(=O)c1ccc(N)cc1)C(c1ccccc1)c1ccccc1 | > 50000 | – | 1.08 | 0.79
6 | CC(C)CN(C(CO)CCCCNC(=O)C(Cc1cccc2ccccc12)NC(=O)N1CCOCC1)S(=O)(=O)c1ccc2c(c1)CCO2 (stereo not shown) | 524 | < 3.8 | 0.995 | 0.788
7 | COC(=O)NC(C(=O)NCCCCC(CO)N(CC(C)C)S(=O)(=O)c1ccc2c(c1)CCO2)C(c1ccccc1)c1ccccc1 (stereo not shown) | 151 | – | – | –
8 | CC(C)CN(C(CO)CCCCNC(=O)C(Cc1ccc2ccccc2c1)NS(=O)(=O)c1ccc2c(c1)OCCN2C)S(=O)(=O)c1ccc(N)cc1 (stereo not shown) | 0.162 | 5.1 | 4.95 | –
9 | CC(C)CN(C(CO)CCCCNC(=O)C(Cc1ccc2ccccc2c1)NS(=O)(=O)c1ccccc1)S(=O)(=O)c1ccc(N)cc1 (stereo not shown) | 3200 | 16.5 | – | –
10 | CC(C)CN(C(CO)CCCCNC(=O)C(Cc1ccccc1Br)NC(=O)c1cccnc1)S(=O)(=O)c1ccc(N)cc1 (stereo not shown) | 58 | – | 0.372 | 0.119
11 | Cc1cnc(C(=O)NC(Cc2ccccc2Br)C(=O)NCCCCC(CO)N(CC(C)C)S(=O)(=O)c2ccc(N)cc2)cn1 (stereo not shown) | 135 | < 3.8 | 0.836 | 0.491
12 | CC(C)CN(C(CO)CCCCNC(=O)C(Cc1ccccc1Br)NC(=O)c1ccccn1)S(=O)(=O)c1ccc(N)cc1 (stereo not shown) | 197 | – | 0.615 | 0.429
13 | Cc1cn(CC(=O)NC(Cc2ccc3ccccc3c2)C(=O)NCCCCC(CO)N(CC(C)C)S(=O)(=O)c2ccc(N)cc2)c(=O)[nH]c1=O (stereo not shown) | 1380 | < 3.8 | 0.878 | 0.788
14 | CC(C)CN(C(CO)CCCCNC(=O)C(Cc1cccc2ccccc12)NC(=O)N1CCOCC1)S(=O)(=O)c1ccc2c(c1)OCCO2 (stereo not shown) | > 50000 | < 3.8 | 2.02 | –
15 | CC(C)CN(C(CO)CCCCNC(=O)C(NC(=O)NCc1cccnc1)C(c1ccccc1)c1ccccc1)S(=O)(=O)c1ccc(N)cc1 (stereo not shown) | 171 | < 3.8 | 0.465 | 0.473
16 | CC(C)CN(C(CO)CCCCNC(=O)C(NS(=O)(=O)c1ccccc1)C(c1ccccc1)c1ccccc1)S(=O)(=O)c1ccc(N)cc1 (stereo not shown) | 61 | < 3.8 | 0.436 | 0.492
